Results: patent US20240269228A1 (priority 2021, published 2024)
Some compounds may have been tested in ways that are not shown here.

Sequences of proteins named here, by UniProt entry; tags and fusion partners are left off. Residues count along the entry.
UniProt P34998, 24-415 limits assumed: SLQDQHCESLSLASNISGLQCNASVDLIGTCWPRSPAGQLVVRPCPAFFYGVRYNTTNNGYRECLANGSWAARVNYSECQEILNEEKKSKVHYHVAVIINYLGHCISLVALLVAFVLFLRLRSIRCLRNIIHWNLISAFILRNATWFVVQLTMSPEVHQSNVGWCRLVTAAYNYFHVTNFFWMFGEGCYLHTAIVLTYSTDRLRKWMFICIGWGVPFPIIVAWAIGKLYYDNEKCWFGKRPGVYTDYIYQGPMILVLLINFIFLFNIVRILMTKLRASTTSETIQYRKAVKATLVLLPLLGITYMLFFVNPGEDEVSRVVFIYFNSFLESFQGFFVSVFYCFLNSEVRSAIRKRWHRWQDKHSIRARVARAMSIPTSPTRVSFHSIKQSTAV
UniProt Q02294, whole entry: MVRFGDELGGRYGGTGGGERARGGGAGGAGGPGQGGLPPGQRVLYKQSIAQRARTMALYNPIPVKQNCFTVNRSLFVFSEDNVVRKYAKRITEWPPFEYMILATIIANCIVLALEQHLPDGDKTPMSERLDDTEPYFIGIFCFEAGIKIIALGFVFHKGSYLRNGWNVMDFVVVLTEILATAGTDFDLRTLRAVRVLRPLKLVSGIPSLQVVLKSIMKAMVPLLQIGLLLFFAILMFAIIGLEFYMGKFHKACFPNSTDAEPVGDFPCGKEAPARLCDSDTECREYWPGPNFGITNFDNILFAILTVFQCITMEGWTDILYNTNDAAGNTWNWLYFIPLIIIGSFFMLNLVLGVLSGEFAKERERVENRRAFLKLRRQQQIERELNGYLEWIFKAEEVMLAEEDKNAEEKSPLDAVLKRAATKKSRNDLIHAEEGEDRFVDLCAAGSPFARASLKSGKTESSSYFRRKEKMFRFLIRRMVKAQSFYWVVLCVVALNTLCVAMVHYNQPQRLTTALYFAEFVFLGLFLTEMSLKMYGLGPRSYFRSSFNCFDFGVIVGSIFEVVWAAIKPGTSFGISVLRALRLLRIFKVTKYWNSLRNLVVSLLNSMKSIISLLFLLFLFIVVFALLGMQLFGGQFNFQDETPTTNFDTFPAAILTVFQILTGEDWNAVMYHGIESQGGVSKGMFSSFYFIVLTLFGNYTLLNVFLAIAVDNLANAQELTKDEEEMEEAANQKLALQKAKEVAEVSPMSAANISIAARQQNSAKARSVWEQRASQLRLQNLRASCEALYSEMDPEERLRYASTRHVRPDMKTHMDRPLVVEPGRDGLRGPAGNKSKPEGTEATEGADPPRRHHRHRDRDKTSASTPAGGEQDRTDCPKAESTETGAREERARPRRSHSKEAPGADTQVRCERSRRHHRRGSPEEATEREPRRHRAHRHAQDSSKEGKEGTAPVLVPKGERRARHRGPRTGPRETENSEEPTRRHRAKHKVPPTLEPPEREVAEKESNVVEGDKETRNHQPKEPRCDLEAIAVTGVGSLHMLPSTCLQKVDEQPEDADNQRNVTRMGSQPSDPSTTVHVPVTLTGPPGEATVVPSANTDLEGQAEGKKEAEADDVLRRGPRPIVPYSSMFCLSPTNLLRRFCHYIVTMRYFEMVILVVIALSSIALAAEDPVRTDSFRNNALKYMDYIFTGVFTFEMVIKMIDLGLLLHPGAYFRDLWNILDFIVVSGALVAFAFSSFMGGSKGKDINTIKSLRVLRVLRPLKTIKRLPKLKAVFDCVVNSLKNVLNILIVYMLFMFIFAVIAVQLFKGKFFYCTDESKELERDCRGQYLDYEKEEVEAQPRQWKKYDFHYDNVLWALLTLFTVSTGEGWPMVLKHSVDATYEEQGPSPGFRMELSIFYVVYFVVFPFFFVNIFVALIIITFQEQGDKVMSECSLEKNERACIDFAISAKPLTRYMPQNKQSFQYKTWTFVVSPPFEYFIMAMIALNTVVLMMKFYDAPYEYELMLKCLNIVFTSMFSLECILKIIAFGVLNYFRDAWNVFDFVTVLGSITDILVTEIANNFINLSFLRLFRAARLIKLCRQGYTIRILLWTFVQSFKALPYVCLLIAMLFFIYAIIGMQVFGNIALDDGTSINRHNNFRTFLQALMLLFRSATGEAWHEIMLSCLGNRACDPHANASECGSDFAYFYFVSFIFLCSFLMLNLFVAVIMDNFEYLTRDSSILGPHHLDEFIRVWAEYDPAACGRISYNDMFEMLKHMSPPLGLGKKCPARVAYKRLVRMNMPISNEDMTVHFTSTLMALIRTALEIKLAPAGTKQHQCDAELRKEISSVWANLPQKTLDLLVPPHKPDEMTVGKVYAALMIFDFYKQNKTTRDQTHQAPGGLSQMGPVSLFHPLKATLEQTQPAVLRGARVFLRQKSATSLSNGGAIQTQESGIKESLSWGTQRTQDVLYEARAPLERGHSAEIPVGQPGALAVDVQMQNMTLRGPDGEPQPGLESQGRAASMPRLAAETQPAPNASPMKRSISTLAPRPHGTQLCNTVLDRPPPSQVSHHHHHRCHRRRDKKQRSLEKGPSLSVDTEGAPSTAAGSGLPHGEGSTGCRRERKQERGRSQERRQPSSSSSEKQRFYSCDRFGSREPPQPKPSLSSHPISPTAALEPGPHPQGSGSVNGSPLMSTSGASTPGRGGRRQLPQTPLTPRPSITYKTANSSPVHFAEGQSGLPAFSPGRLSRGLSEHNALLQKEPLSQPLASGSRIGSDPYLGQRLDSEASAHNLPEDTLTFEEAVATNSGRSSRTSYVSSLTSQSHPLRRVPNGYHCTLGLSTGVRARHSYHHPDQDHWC
UniProt P37288, whole entry: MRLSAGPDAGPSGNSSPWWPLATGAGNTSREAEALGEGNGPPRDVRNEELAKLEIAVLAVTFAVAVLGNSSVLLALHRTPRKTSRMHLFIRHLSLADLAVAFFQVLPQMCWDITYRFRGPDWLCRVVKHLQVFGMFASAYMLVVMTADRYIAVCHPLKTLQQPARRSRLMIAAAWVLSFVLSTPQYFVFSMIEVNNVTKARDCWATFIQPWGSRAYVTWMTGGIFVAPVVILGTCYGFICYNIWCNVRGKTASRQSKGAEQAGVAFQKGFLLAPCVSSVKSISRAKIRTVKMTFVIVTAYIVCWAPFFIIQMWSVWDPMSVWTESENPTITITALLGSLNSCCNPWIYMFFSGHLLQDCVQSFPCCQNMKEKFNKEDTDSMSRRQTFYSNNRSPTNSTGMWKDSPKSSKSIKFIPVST
UniProt P32238, whole entry: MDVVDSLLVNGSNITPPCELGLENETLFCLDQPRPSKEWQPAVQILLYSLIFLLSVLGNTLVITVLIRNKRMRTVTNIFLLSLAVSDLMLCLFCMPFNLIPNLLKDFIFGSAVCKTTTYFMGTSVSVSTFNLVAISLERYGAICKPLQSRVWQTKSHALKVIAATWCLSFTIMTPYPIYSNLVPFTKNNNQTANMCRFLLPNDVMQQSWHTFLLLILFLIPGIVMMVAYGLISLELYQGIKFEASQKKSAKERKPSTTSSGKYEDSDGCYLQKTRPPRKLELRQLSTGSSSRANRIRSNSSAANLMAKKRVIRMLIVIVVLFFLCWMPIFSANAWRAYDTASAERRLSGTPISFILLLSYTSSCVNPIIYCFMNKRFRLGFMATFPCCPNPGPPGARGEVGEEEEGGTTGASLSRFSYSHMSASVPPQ
UniProt P47901, whole entry: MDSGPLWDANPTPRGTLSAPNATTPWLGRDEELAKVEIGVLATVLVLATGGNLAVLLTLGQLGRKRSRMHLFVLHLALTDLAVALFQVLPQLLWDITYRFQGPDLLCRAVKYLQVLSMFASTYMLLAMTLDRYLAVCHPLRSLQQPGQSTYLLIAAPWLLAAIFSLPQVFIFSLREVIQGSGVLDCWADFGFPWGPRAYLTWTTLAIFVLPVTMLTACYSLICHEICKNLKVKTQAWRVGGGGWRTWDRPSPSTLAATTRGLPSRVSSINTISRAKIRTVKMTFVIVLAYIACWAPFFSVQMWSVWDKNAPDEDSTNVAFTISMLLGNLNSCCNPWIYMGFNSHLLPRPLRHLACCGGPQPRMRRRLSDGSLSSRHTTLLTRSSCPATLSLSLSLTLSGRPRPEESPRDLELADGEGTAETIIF
UniProt P47211, whole entry: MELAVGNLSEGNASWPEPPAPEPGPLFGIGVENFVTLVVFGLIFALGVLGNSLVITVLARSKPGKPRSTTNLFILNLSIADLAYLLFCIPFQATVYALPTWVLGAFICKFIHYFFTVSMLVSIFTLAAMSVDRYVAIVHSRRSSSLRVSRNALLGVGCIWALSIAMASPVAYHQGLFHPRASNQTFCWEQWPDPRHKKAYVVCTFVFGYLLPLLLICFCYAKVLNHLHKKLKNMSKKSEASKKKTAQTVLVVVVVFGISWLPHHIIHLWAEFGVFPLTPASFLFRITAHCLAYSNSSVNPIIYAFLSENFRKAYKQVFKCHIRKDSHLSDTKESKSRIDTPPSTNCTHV
UniProt P35367, whole entry: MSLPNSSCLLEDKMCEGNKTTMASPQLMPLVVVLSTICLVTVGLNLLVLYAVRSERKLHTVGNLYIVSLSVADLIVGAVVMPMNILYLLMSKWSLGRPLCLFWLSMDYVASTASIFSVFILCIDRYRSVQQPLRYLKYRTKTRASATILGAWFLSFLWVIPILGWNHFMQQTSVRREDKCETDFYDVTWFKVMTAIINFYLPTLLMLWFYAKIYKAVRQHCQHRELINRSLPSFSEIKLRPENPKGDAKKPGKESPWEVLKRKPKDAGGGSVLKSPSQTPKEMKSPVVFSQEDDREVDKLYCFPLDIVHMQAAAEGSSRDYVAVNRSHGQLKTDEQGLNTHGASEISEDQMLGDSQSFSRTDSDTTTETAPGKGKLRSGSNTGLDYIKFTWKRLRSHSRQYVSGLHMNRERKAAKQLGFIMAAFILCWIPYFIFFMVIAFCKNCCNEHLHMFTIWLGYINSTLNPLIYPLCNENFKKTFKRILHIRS
UniProt P41146, whole entry: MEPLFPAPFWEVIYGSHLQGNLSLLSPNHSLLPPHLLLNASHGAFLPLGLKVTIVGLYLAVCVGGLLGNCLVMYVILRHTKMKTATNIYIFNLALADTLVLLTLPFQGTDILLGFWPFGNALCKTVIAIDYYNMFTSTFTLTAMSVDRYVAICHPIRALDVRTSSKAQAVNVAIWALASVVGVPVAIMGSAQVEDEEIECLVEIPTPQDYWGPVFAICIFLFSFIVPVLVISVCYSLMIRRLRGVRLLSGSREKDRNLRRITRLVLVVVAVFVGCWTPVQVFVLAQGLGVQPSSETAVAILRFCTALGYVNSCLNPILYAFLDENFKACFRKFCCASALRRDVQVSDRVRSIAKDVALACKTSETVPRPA
UniProt P50052, whole entry: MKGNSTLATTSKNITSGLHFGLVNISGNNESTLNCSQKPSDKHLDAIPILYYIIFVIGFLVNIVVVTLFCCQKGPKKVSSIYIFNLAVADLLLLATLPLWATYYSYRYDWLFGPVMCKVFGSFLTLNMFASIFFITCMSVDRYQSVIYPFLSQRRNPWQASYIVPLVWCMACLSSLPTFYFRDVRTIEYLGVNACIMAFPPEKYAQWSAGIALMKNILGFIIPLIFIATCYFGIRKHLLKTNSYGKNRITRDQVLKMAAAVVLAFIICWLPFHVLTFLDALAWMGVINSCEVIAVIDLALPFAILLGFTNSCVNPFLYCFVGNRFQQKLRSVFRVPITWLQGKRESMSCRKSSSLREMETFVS
UniProt P24530, 27-442 limits assumed: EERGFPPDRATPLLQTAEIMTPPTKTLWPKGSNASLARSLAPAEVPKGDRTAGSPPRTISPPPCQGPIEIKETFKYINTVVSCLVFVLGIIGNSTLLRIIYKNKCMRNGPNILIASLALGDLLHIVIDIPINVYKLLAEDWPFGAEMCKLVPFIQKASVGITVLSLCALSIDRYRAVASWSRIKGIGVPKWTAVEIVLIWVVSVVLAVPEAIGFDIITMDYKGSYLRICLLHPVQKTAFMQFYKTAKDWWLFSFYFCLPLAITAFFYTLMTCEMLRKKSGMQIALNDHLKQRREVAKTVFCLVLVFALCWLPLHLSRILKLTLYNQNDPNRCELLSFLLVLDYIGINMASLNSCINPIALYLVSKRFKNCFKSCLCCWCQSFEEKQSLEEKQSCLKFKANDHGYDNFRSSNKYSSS
UniProt P21554, whole entry: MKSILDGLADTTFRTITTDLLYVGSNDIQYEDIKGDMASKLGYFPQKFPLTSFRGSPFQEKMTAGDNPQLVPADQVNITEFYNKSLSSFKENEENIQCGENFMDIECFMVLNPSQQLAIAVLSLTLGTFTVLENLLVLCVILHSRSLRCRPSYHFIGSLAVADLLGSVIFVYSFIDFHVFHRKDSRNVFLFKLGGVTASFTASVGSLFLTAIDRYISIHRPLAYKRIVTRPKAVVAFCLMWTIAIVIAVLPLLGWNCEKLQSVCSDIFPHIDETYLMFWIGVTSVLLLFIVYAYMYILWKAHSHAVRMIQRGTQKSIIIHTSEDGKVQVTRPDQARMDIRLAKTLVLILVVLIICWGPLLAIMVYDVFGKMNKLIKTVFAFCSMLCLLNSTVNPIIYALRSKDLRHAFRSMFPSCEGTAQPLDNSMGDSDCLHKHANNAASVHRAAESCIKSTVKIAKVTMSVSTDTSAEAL

Columns and labels:
Assay in all cases: Radioligand binding assay (Eurofins Cerep)
[1] = molecular target: Corticotropin-releasing factor CRF1 (Homo sapiens, UniProt P34998); settings: 10 μM; radioligand [^125I]sauvagine
[2] = molecular target: Opioid κ (KOP) (Rattus norvegicus, UniProt P34975); settings: 10 μM, radioligand [^3H]U 69593
[3] = molecular target: Ca^2+ channel (N type) (Rattus norvegicus, UniProt Q02294); settings: 10 μM, radioligand [^125I]ω-conotoxin GVIA
[4] = molecular target: Vasopressin V1a (Homo sapiens, UniProt P37288); settings: 10 μM; radioligand [^125I]AVP
[5] = molecular target: Cholecystokinin CCK1 (Homo sapiens, UniProt P32238); settings: 10 μM; radioligand [^125I]CCK-8s
[6] = molecular target: Histamine H3 (Homo sapiens, UniProt Q9Y5N1); settings: 10 μM; radioligand [^3H] N^α-Me-histamine
[7] = molecular target: Vasopressin V1b (Homo sapiens, UniProt P47901); settings: 10 μM; radioligand [^125I]AVP
[8] = molecular target: Galanin GAL1 (h) (Homo sapiens, UniProt P47211); settings: 10 μM; radioligand [^125I]galanin
[9] = molecular target: Angiotensin AT1 (Homo sapiens, UniProt P30556); settings: 10 μM; radioligand [^125I][ Sar^1, Ile^8]-AT-II
[10] = test system: Glutamate Phencyclidine PCP site; settings: 10 μM; radioligand [^3H]TCP; rat
[11] = test system: Ca^2+ channel (L type, dihydropyridine site); settings: 10 μM; radioligand [^3H]nitrendipine; rat
[12] = test system: α2 adrenergic (non-selective); settings: 10 μM; radioligand [^3H]RX 821002; rat
[13] = molecular target: glycine (strychnine-insensitive) (Rattus norvegicus, UniProt P35439); settings: 10 μM, radioligand [^3H]MDL 105,519
[14] = test system: glycine (strychnine-sensitive); settings: 10 μM; radioligand [^3H] strychnine
[15] = test system: Ca^2+ channel (L type, ditiazem site) (benzothiazepines); settings: 10 μM; radioligand [^3H]diltiazem; rat
[16] = molecular target: Histamine H1 (Homo sapiens, UniProt P35367); settings: 10 μM; radioligand [^3H] pyrilamine
[17] = molecular target: Opioid NOP (ORL1) (Homo sapiens, UniProt P41146); settings: 10 μM; radioligand [^3H]nociceptin
[18] = molecular target: Angiotensin AT2 (Homo sapiens, UniProt P50052); settings: 10 μM; radioligand [^125I]CGP 42112A
[19] = molecular target: Nicotinic neuronal α7 (Homo sapiens, UniProt P36544); settings: 10 μM; radioligand [^125I]α-bungarotoxin
[20] = test system: Glutamate kainite site; settings: 10 μM; radioligand [^3H] kainic acid; rat
[21] = test system: Estrogen receptor (non-selective); settings: 10 μM; radioligand [^3H]estradiol
[22] = molecular target: Neurokinin NK3 (Homo sapiens, UniProt P29371); settings: 10 μM; radioligand [^125I]SR 142801
[23] = molecular target: Endothelin ETB (Homo sapiens, UniProt P24530); settings: 10 μM; radioligand [^125I]Endothelin-3
[24] = test system: Androgen Receptor; settings: 10 μM; radioligand [^3H]methyltrienolone
[25] = molecular target: Neurokinin NK1 (Homo sapiens, UniProt P25103); settings: 10 μM; radioligand [^125I]substance P
[26] = molecular target: Opioid μ (MOP) (Homo sapiens, UniProt P35372); settings: 10 μM; radioligand [^3H]DAMGO
[27] = molecular target: Cannabinoid CB1 (Homo sapiens, UniProt P21554); settings: 10 μM; radioligand [^3H]CP55940
[28] = test system: Benzodiazepine (central); settings: 10 μM; radioligand [^3H]flunitrazepam; rat
[29] = test system: Potassium channel SKCa; settings: 10 μM; radioligand [^125I]apamin; rat
[30] = test system: Sodium Channel (site 2); settings: 10 μM; radioligand [^3H]batrachotoxin; rat

C[C@@H](O)[C@@H]1NC(=O)[C@H]2NC(=O)[C@@H](NC(=O)CN)CSSC[C@H](NC(=O)[C@H](CCCNC(=N)N)NC(=O)[C@@H]3CCCN3C(=O)[C@H](CC(=O)O)NC1=O)C(=O)N[C@@H](CCCNC(=N)N)C(=O)N[C@@H](Cc1ccc(O)c(I)c1)C(=O)N[C@@H](CCC(N)=O)C(=O)N[C@H](C(=O)N[C@H](CC(=O)N[C@@H](CCCNC(=N)N)C(=O)O)Cc1ccc(O)cc1)CSSC2(C)C
Inhibition [%] [1]: −5.3%
Inhibition [%] [2]: 2.6%
Inhibition [%] [3]: −7.3%
Inhibition [%] [4]: 4.2%
Inhibition [%] [5]: −25.1%
Inhibition [%] [6]: 24.1%
Inhibition [%] [7]: −6.4%
Inhibition [%] [8]: −14.2%
Inhibition [%] [9]: −13.6%
Inhibition [%] [10]: −6.0%
Inhibition [%] [11]: −10.1%
Inhibition [%] [12]: 0%
Inhibition [%] [13]: 14.9%
Inhibition [%] [14]: 22.4%
Inhibition [%] [15]: −16.5%
Inhibition [%] [16]: −0.2%
Inhibition [%] [17]: 2.7%
Inhibition [%] [18]: 17.8%
Inhibition [%] [19]: 54.3%
Inhibition [%] [20]: −19.9%
Inhibition [%] [21]: −14.8%
Inhibition [%] [22]: −35.5%
Inhibition [%] [23]: −5.3%
Inhibition [%] [24]: 3.4%
Inhibition [%] [25]: −7.5%
Inhibition [%] [26]: 14.6%
Inhibition [%] [27]: 27.6%
Inhibition [%] [28]: −6.4%
Inhibition [%] [29]: 14.6%
Inhibition [%] [30]: 7.2%
